From patent US9919060B2 (University Court of the University of Dundee, priority 2009, dated 2018)

What was measured:
CHO/CYP1B1 cells = experiment: Cytotoxicity (MTS assay) in CHO/CYP1B1 cells; format: cell-based, Chinese Hamster; settings: IC50 in normal CHO cells divided by IC50 in CYP1B1 transfected CHO cells
CHO/CYP1A1 cells = experiment: Cytotoxicity (MTS assay) in CHO/CYP1A1 cells; format: cell-based, Chinese Hamster; settings: IC50 in normal CHO cells divided by IC50 in CYP1A1 transfected CHO cells

Row | SMILES | IC50 ratio 72 h (CHO / CHO/CYP1B1) (CHO/CYP1B1 cells) | IC50 ratio 72 h (CHO / CHO/CYP1A1) (CHO/CYP1A1 cells)
1 | O=P(O)(NCCBr)NCCBr | 1.25 | 1
2 | NP(N)(=O)N(CCCl)CCCl | <1 | 1.2
